Compound potency records, mixed from different reports. Data source: NIAID ChemDB in PubChem.

Common to all: whole-cell or culture tests; species: Mycobacterium tuberculosis

Rows are shuffled and stem from different studies. MIC bound comes from a single tested concentration. An empty or dashed field is not shown. A number after MIC or MFC names an inhibition level or a share of isolates. ECn is the concentration giving n% inhibition of infection, replication or growth. Inhibition is in % at the dose shown (toxicity tests: loss of growth or viability).

SMILES	method	strain	setting	measure	dose	result
COC(=O)CC[C@@H](C)[C@H]1CCC2C3C(C[C@H](O)[C@@]21C)[C@@]1(C)CC[C@H](n2cc(CNCCCCNc4ccnc5cc(Cl)ccc45)nn2)C[C@H]1C[C@H]3O	resazurin	H37Rv		MIC90		17 µM
CC(=O)NNC(=O)CN(CC(=O)NNC(C)=O)N=O	BACTEC	H37Rv		inhibition	12.5 µg/mL	13%
c1ccc(P(c2ccccc2)c2ccccn2)cc1	broth dilution / visual reading	H37Rv	14 d	MIC99		320 µM
COc1ccccc1N1CCN(CCCCOc2nsc3nc(C)cc(C)c23)CC1	BACTEC	H37Rv		EC50		>12.5 µg/mL
COc1cc(O)c2c(=O)c3cc(O)ccc3oc2c1		90-221387		MIC		3.1 µg/mL
S=c1[nH]c2ccccc2c(=S)n1-c1ccc(Cl)c(Cl)c1		331/81		MIC		16 µM
NC1=NNC2(C(=O)N1)c1ccccc1-c1ccccc12	BACTEC	H37Rv		MIC bound		≤12.5 µg/mL
O=[N+]([O-])c1ccc(-c2nnc(SCc3ccccc3[N+](=O)[O-])s2)o1		H37Rv		inhibition	6.25 µg/mL	98%
S=c1[nH]c2ccccc2c(=S)n1-c1ccccc1		331/81		MIC		64 µM
O=C(CSc1nnc(-c2ccc3ncccc3c2)o1)Nc1ccc(F)cc1	agar	H37Rv		MIC		25 µg/mL
O=C1c2cc(I)ccc2-n2c1nc1ccccc1c2=O		H37Rv		MIC		0.13 µg/mL
C=CCSc1nnc(-c2ccc([N+](=O)[O-])o2)s1		H37Rv		inhibition	6.25 µg/mL	84%
O=C1c2ccccc2C(=O)c2sc(Nc3ccccc3C(F)(F)F)nc21	BACTEC	H37Rv		inhibition	12.5 µg/mL	100%
CCCCOc1ccccc1NC(=O)OCCN1CCCCC1		My 331/88		MIC		125 µM
CO/N=C1\C(=O)N(CCOCCN2C(=O)/C(=N/OC)c3ccccc32)c2ccccc21	resazurin	H37Rv		MIC		>32 µg/mL
S=c1[nH]c2ccccc2c(=S)n1-c1ccc(Br)cc1		331/81		MIC		32 µM
CCCCCCCOc1ccccc1NC(=O)OC(COCC)CN1CCCCC1		My 331/88		MIC		32 µM
COC(=O)C1[C@@H](OC(=O)CC(CCCCCCCCCCC(C)C)OC(=O)CC(C)CC(=O)OC2OC(C)C(OC)C(OC)C2OC)CN(C)C([C@@H](OC2O[C@H](CN)[C@@H](O)[C@H]2O)C2OC(n3ccc(=O)[nH]c3=O)[C@H](O)[C@@H]2O)C(=O)N1C		Kurono		MIC		6.25 µg/mL
CCCCOc1ccccc1NC(=O)OC(C)CN1CCCCC1		My 331/88		MIC		62.5 µM
C=C(C)[C@@H](O)Cc1c(O)cc(-c2ccc(O)cc2)cc1OC		90-221387		MIC		50.3 µg/mL
NC(=O)CSc1ncnc2c1cnn2COCCO		H37Rv		MIC		>6.25 µg/mL
S=c1oc2c(Cl)cc(Cl)cc2c(=S)n1-c1ccc(Cl)cc1		331/81		MIC		16 µM
COc1cc(C=O)cc(OC)c1O		90-221387		MIC		>100 µg/mL
CC(C)CC(N)C(=O)N/N=C/c1occc1[N+](=O)[O-]	resazurin	H37Rv		MIC		25 µg/mL
CCCCCOc1ccc(NC(=O)OCCN2CCCCC2)cc1		My 331/88		MIC		32 µM
O=C1C(=O)N(CCOCCN2C(=O)C(=O)c3cc(Cl)ccc32)c2ccc(Cl)cc21	resazurin	H37Rv		MIC		>32 µg/mL
C[C@H]1C[C@@H]1NC(=O)c1cc2sc(OC[C@@H]3CCOC3)nc2s1	visual reading	H37Rv		MIC		0.63 µM
O=C1c2cc(OC(F)(F)F)ccc2-n2c1nc1ccccc1c2=O		H37Rv		MIC		0.03 µg/mL
CC(=O)Nc1ccc(S(=O)(=O)NNc2nc(N3CCOCC3)nc(N3CCOCC3)n2)cc1	BACTEC	H37Rv		MIC		≥12.5 µg/mL
Cc1cc(C)c2c(=O)n(CC(O)CN3CCN(c4ncccn4)CC3)sc2n1	BACTEC	H37Rv		inhibition	12.5 µg/mL	4%
CCC(Sc1ncnc2c1cnn2CCCCO)C(N)=O		H37Rv		MIC		>6.25 µg/mL
CCCCCCCOc1cccc(NC(=O)OCCN2CCCCC2)c1		My 331/88		MIC		16 µM
CCCCCCCCCCCCCCCCCC(=O)O[C@H]1CC[C@]2(C)C3CC[C@@]4(C)C(CC[C@@H]4[C@H](C)/C=C/[C@H](C)C(C)C)C34C=CC2(C1)OO4		H37Rv (ATCC 27294)		MIC		4 µg/mL
N#Cc1c(N)[n+]([O-])c2cc(F)c(Cl)cc2[n+]1[O-]		H37Rv		MIC		<6.25 µg/mL
CCN(CC)CC(O)CNc1ccc(C)c2sc3ccccc3c(=O)c12	BACTEC	H37Rv		inhibition	12.5 µg/mL	100%
C[C@@H]1CN(c2nc3sc(C(=O)N[C@H]4C[C@@H]4C)cc3s2)CCO1	visual reading	H37Rv		MIC		2.83 µM
Cc1cc(C)c2c(OCCCCN3CCN(c4ccccc4)CC3)nsc2n1	BACTEC	H37Rv		inhibition	12.5 µg/mL	2%
Cn1c([N+](=O)[O-])cnc1-c1nnc(SCc2ccc([N+](=O)[O-])cc2)s1		H37Rv		inhibition	6.25 µg/mL	0%
Cc1cc(C)c2c(=O)n(CN3CCN(C/C=C/c4ccccc4)CC3)sc2n1	BACTEC	H37Rv		inhibition	12.5 µg/mL	0%
CCCCC1=C(O)c2ccccc2C(=NC(CO)(CO)CO)C1=O	BACTEC	H37Rv		MIC		≥12.5 µg/mL
CC(NC(=O)OC(C)(C)C)C(=O)N/N=C/c1cccs1	resazurin	H37Rv		MIC		100 µg/mL
O=Nc1c(O)n(CCOCCn2c(O)c(N=O)c3ccccc32)c2ccccc12	resazurin	H37Rv		MIC		>32 µg/mL
N=C(N)c1ccc(N=Nc2c(O)ccc3cc4c(N=Nc5ccc(C(=N)N)cc5)c(O)ccc4cc23)cc1	resazurin	H37Rv		inhibition	6.25 µg/mL	8%
CC(=O)Nc1ccc2nc(NC(=O)CSc3nnc(-c4ccc5ncccc5c4)o3)sc2c1	agar	H37Rv		MIC		62.5 µg/mL
CN(C)CCNC(=O)c1cc([N+](=O)[O-])cc2c1Oc1ccccc1O2	BACTEC	H37Rv		inhibition	6.25 µg/mL	0%
CC(Sc1ncnc2c1cnn2COCCO)C(N)=O		H37Rv		MIC		>6.25 µg/mL
CC(C)CCOCC(O)CNCCN	resazurin	H37Rv		MIC bound		>6.25 µg/mL
CC(C)CC(NC(=O)OCc1ccccc1)C(=O)N/N=C/c1occc1[N+](=O)[O-]	resazurin	H37Rv		MIC		25 µg/mL
CN[C@@H]1[C@H](O[C@H]2[C@H](O[C@H]3[C@H](O)[C@@H](O)[C@H](N=C(N)N)[C@@H](O)[C@@H]3N=C(N)N)O[C@@H](C)[C@]2(O)C=O)O[C@@H](CO)[C@H](O)[C@H]1O	resazurin	H37Rv		MIC		0.25 µg/mL
NC(=S)N/N=C1\C(=O)NC(=O)C1c1ccccc1	BACTEC	H37Rv		MIC bound		>12.5 µg/mL
CC(C)(C)OC(=O)NC(Cc1ccccc1)C(=O)N/N=C/c1sccc1[N+](=O)[O-]	resazurin	H37Rv		MIC		50 µg/mL
CC1CC(NC(=O)c2cc3sc(N4CCN(C5COC5)[C@H](C)C4)nc3s2)C1	visual reading	H37Rv		MIC		1.41 µM
CCCCCCCOc1cccc(NC(=O)OC(COCC)CN2CCCCC2)c1		My 331/88		MIC		4 µM
C=CCSc1nnc(-c2ncc([N+](=O)[O-])n2C)s1		H37Rv		MIC		>6.25 µg/mL
O=C(O)c1c2ccc(=O)cc-2oc2cc(O)ccc12	BACTEC	H37Rv		MIC bound		>12.5 µg/mL
CC(C)CC(NC(=O)OC(C)(C)C)C(=O)N/N=C/c1occc1[N+](=O)[O-]	resazurin	H37Rv		MIC		50 µg/mL
Cc1cc(C)c2c(OCCCN3CCN(c4cccc(Cl)c4)CC3)nsc2n1	BACTEC	H37Rv		inhibition	12.5 µg/mL	0%
O=C1c2ccccc2-n2c1nc1cnccc1c2=O		H37Rv		MIC		1 µg/mL
O=C(CSc1nnc(-c2ccc3ncccc3c2)o1)Nc1nc2ccc(Br)cc2s1	agar	H37Rv		MIC		6.25 µg/mL
COc1cc(-c2nn3c(C)c(-c4ccccc4)nc3s2)cc(OC)c1OC	BACTEC	H37Rv		MIC bound		>12.5 µg/mL
CC(C)c1ccc2c(c1)CCC1[C@@]2(C)CCC[C@]1(C)C(=O)O		H37Rv (ATCC 27294)		MIC		64 µg/mL
CCCC/C(C)=N/NC(=S)SC		H37Rv		MIC		4 µg/mL
C[C@H]1CN(c2nc3sc(C(=O)N[C@H]4C[C@@H]4C)cc3s2)[C@@H](C)CO1	visual reading	H37Rv		MIC		2.25 µM
CC(=O)OCC1=C(COC(C)=O)C2OC1C1OC(=O)OC21	BACTEC	H37Rv		inhibition	12.5 µg/mL	0%
O=C(NC(Cc1ccccc1)C(=O)N/N=C/c1occc1[N+](=O)[O-])OCc1ccccc1	resazurin	H37Rv		MIC		12.5 µg/mL
COc1ccc(-c2ccc(O)cc2)c2c1C[C@H](O)C(C)(C)O2		90-221387		MIC		>100 µg/mL
O=S1c2ccccc2S(=O)c2ccccc21	BACTEC	H37Rv		inhibition	12.5 µg/mL	19%
CCCCOc1cccc(NC(=O)OC(C)CN2CCCCC2)c1		My 331/88		MIC		62.5 µM
Cc1ccc([N+](=O)[O-])cc1NC(=O)Nc1ccc(Cl)c(Cl)c1	broth dilution / turbidity			MIC90		0.4 µg/mL
CCO/N=C1\C(=O)N(CCOCCN2C(=O)/C(=N/OCC)c3cc(Cl)ccc32)c2ccc(Cl)cc21	resazurin	H37Rv		MIC		>32 µg/mL
Cc1cc2c(cc1C)[n+]([O-])c(NC(=O)OC(C)C)c(C#N)[n+]2[O-]		H37Rv		inhibition	6.25 µg/mL	100%
CCCSc1nnc(-c2ncc([N+](=O)[O-])n2C)s1		H37Rv		MIC		3.13 µg/mL
COc1ccc2c(c1)[n+]([O-])c(C#N)c(NC(=O)OC(C)C)[n+]2[O-]		H37Rv		MIC		<12.5 µg/mL
CC(C)[C@@H](C)/C=C/[C@@H](C)[C@H]1CCC2[C@@]34C=C[C@]5(C[C@@H](O)CC[C@]5(C)C3CC[C@@]21C)OO4		H37Rv (ATCC 27294)		MIC		2 µg/mL
Cn1c([N+](=O)[O-])cnc1-c1nnc(SCc2ccccc2[N+](=O)[O-])s1		H37Rv		MIC		>6.25 µg/mL
Cc1cc(C)c2c(n1)S(=O)(=O)N(C/C=C/CN1CCN(c3ncccn3)CC1)C2=O	BACTEC	H37Rv		EC50		>12.5 µg/mL
O=[n+]1c2ccccc2n([O-])c2ccccc21.[Cl][Cu][Cl]	BACTEC	H37Rv		MIC		3.13 µg/mL
CCCCCCCCCCCCCC(=O)OCC1OC(O[C@H]2CC[C@@]3(C)C(=CCC4C3CC[C@@]3(C)C4CC[C@@H]3[C@H](C)CC[C@@H](CC)C(C)C)C2)C(O)C(O)C1O		H37Rv (ATCC 27294)		MIC		32 µg/mL
COc1cc2c(cc1O)C(C)C(c1ccccc1)O2	BACTEC	H37Rv		MIC bound		>12.5 µg/mL
C=C[C@]1(C)CC=C2C(CCC3[C@](C)(COC(=O)CC(=O)O)CCC[C@@]23C)C1		H37Rv (ATCC 27294)		MIC		8 µg/mL
CCC1C[N+]2=C(c3cc(OC)c(OC)cc3CC2)c2c1cc1n2CCc2cc(OC)c(OC)cc2-1		EMB-R		MIC		>12.8 µg/mL
COC(=O)Nc1c(C#N)[n+]([O-])c2ccccc2[n+]1[O-]		H37Rv		MIC		<12.5 µg/mL
CN(C)c1ccc2nc3ccc(=N)cc-3sc2c1.Cl	BACTEC	H37Rv		MIC bound		>12.5 µg/mL
CC[C@@H](CC[C@@H](C)[C@H]1CCC2C3C(=O)C=C4C[C@@H](O)CC[C@]4(C)C3CC[C@@]21C)C(C)C		H37Rv (ATCC 27294)		MIC		128 µg/mL
CCN(CC)CCOCC(=O)Nc1c(C)cccc1Cl.Cl	BACTEC	H37Rv		MIC bound		>12.5 µg/mL
Cc1cc(C)c2c(OCCCCN3CCN(c4ccccn4)CC3)nsc2n1	BACTEC	H37Rv		EC50		>12.5 µg/mL

Again, the opening 9 rows:

COC(=O)CC[C@@H](C)[C@H]1CCC2C3C(C[C@H](O)[C@@]21C)[C@@]1(C)CC[C@H](n2cc(CNCCCCNc4ccnc5cc(Cl)ccc45)nn2)C[C@H]1C[C@H]3O ; method: resazurin ; strain: H37Rv ; measure: MIC90 ; result: 17 µM
CC(=O)NNC(=O)CN(CC(=O)NNC(C)=O)N=O ; method: BACTEC ; strain: H37Rv ; measure: inhibition ; dose: 12.5 µg/mL ; result: 13%
c1ccc(P(c2ccccc2)c2ccccn2)cc1 ; method: broth dilution / visual reading ; strain: H37Rv ; setting: 14 d ; measure: MIC99 ; result: 320 µM
COc1ccccc1N1CCN(CCCCOc2nsc3nc(C)cc(C)c23)CC1 ; method: BACTEC ; strain: H37Rv ; measure: EC50 ; result: >12.5 µg/mL
COc1cc(O)c2c(=O)c3cc(O)ccc3oc2c1 ; strain: 90-221387 ; measure: MIC ; result: 3.1 µg/mL
S=c1[nH]c2ccccc2c(=S)n1-c1ccc(Cl)c(Cl)c1 ; strain: 331/81 ; measure: MIC ; result: 16 µM
NC1=NNC2(C(=O)N1)c1ccccc1-c1ccccc12 ; method: BACTEC ; strain: H37Rv ; measure: MIC bound ; result: ≤12.5 µg/mL
O=[N+]([O-])c1ccc(-c2nnc(SCc3ccccc3[N+](=O)[O-])s2)o1 ; strain: H37Rv ; measure: inhibition ; dose: 6.25 µg/mL ; result: 98%
S=c1[nH]c2ccccc2c(=S)n1-c1ccccc1 ; strain: 331/81 ; measure: MIC ; result: 64 µM